These are literature values, as cited in paper PMC4885069.

The chains behind the UniProt entries cited, without tags or fusion partners. Residues count along the entry.
UniProt Q496J9, 456-574: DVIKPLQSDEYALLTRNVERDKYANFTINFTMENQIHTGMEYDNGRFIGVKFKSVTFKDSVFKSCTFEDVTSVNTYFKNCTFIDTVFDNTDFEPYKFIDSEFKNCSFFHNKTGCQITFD
UniProt Q496J9, 529-579: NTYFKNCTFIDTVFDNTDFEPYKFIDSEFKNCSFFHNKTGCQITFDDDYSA

Where two headings read alike, the source gives them in different places.

Usually Kd stands for the free concentration of one partner at which half of the binding sites on the other are occupied at equilibrium, for simple one-to-one binding.

Settings in all cases: cited from earlier work
Series [1] addresses SV2C 456-574 (Homo sapiens) (UniProt Q496J9).
Series [2] has as its target SV2C 529-579 (Homo sapiens) (UniProt Q496J9). Put plainly: SPR.
Series [3] has the same target.

BoNT/A HC (from UniProt P0DPI1): the Kd was 260 nM in series [1], 96.2 nM in series [2] and 105 nM in series [3].
